Data as given in US8962670B2, “Anti-cancer agents” (UWM Research Foundation, Inc., priority 2011, dated 2015).

Experiments:
Assay in all cases: NCI 60 panel GI50
Type in all cases: cell-based, human
T-47D (Breast Cancer) = test system: T-47D (Breast Cancer)
CCRF-CEM (Leukemia) = test system: CCRF-CEM (Leukemia)
U251 (CNS Cancer) = test system: U251 (CNS Cancer)
MOLT-4 (Leukemia) = test system: MOLT-4 (Leukemia)
[1] = test system: HOP-92 (Non-Small Cell Lung Cancer)
HCT-116 (Colon Cancer) = test system: HCT-116 (Colon Cancer)
UACC-62 (Melanoma) = test system: UACC-62 (Melanoma)
HCT-15 (Colon Cancer) = test system: HCT-15 (Colon Cancer)
SR (Leukemia) = test system: SR (Leukemia)
SNB-19 (CNS Cancer) = test system: SNB-19 (CNS Cancer)
CAKI-1 (Renal Cancer) = test system: CAKI-1 (Renal Cancer)
786-0 (Renal Cancer) = test system: 786-0 (Renal Cancer)
ACHN (Renal Cancer) = test system: ACHN (Renal Cancer)
UO-31 (Renal Cancer) = test system: UO-31 (Renal Cancer)
A498 (Renal Cancer) = test system: A498 (Renal Cancer)
[2] = test system: NCI-H522 (Non-Small Cell Lung Cancer)
HL-60(TB) (Leukemia) = test system: HL-60(TB) (Leukemia)
DU-145 (Prostate Cancer) = test system: DU-145 (Prostate Cancer)
RXF 393 (Renal Cancer) = test system: RXF 393 (Renal Cancer)
M14 (Melanoma) = test system: M14 (Melanoma)
[3] = test system: MDA-MB-468 (Breast Cancer)
SW-620 (Colon Cancer) = test system: SW-620 (Colon Cancer)
[4] = test system: A549/ATCC (Non-Small Cell Lung Cancer)
PC-3 (Prostate Cancer) = test system: PC-3 (Prostate Cancer)
[5] = test system: NCI-H460 (Non-Small Cell Lung Cancer)
COLO 205 (Colon Cancer) = test system: COLO 205 (Colon Cancer)
SF-268 (CNS Cancer) = test system: SF-268 (CNS Cancer)
RPMI-8226 (Leukemia) = test system: RPMI-8226 (Leukemia)
SF-295 (CNS Cancer) = test system: SF-295 (CNS Cancer)
MCF7 (Breast Cancer) = test system: MCF7 (Breast Cancer)
SF-539 (CNS Cancer) = test system: SF-539 (CNS Cancer)
SK-OV-3 (Ovarian) = test system: SK-OV-3 (Ovarian)
NCI/ADR-RES (Ovarian) = test system: NCI/ADR-RES (Ovarian)
LOX IMVI (Melanoma) = test system: LOX IMVI (Melanoma)
[6] = test system: NCI-H23 (Non-Small Cell Lung Cancer)
SNB-75 (CNS Cancer) = test system: SNB-75 (CNS Cancer)

SMILES: OB(O)c1ccc(N(CCCl)CCCl)cc1
- GI50 (T-47D (Breast Cancer)): 6.29 µM
- GI50 (CCRF-CEM (Leukemia)): 3.27 µM
- GI50 (U251 (CNS Cancer)): 3.49 µM
- GI50 (MOLT-4 (Leukemia)): 2900 nM
- GI50 [1]: 10.5 µM
- GI50 (HCT-116 (Colon Cancer)): 9.37 µM
- GI50 (UACC-62 (Melanoma)): 4.71 µM
- GI50 (HCT-15 (Colon Cancer)): 9.46 µM
- GI50 (SR (Leukemia)): 480 nM
- GI50 (SNB-19 (CNS Cancer)): 8 µM
- GI50 (CAKI-1 (Renal Cancer)): 1440 nM
- GI50 (786-0 (Renal Cancer)): 4.04 µM
- GI50 (ACHN (Renal Cancer)): 1750 nM
- GI50 (UO-31 (Renal Cancer)): 6.05 µM
- GI50 (A498 (Renal Cancer)): 3.43 µM
- GI50 [2]: 3.53 µM
- GI50 (HL-60(TB) (Leukemia)): 2880 nM
- GI50 (DU-145 (Prostate Cancer)): 4.89 µM
- GI50 (RXF 393 (Renal Cancer)): 2550 nM
- GI50 (M14 (Melanoma)): 4.77 µM
- GI50 [3]: 510 nM
- GI50 (SW-620 (Colon Cancer)): 8.39 µM
- GI50 [4]: 890 nM
- GI50 (PC-3 (Prostate Cancer)): 15.1 µM
- GI50 [5]: 230 nM
- GI50 (COLO 205 (Colon Cancer)): 7.26 µM
- GI50 (SF-268 (CNS Cancer)): 4.72 µM
- GI50 (RPMI-8226 (Leukemia)): 8.59 µM
- GI50 (SF-295 (CNS Cancer)): 1360 nM
- GI50 (MCF7 (Breast Cancer)): 1890 nM
- GI50 (SF-539 (CNS Cancer)): 3.35 µM
- GI50 (SK-OV-3 (Ovarian)): 3.81 µM
- GI50 (NCI/ADR-RES (Ovarian)): 2690 nM
- GI50 (LOX IMVI (Melanoma)): 3.13 µM
- GI50 [6]: 3.36 µM
- GI50 (SNB-75 (CNS Cancer)): 3.21 µM
